The numbers were not newly measured in patent US7862843B2 (priority 2004, dated 2011), which cites them from elsewhere.

For this data set, the system named is BSE-infected bovine brain and scarpie-infected rodent brain. Particulars: 1 or 2 M, up to 2 hours.

As to `[Na+].[OH-]` [sodium hydroxide], the “Inactivation of the infectivity of prions” value is recorded as “did not completely inactivate”.
